Data as given in publication PMC3426654 (Biochemistry, 2012).

System: O=c1ccn([C@@H]2O[C@H](COP(=O)(O)OP(=O)(O)O[C@H]3O[C@@H]([C@H](O)CO)[C@H](O)[C@H]3O)[C@@H](O)[C@H]2O)c(=O)[nH]1
Test: purified protein
Conditions: pH 7.5, 37 °C, 20 mM dithionite (reduced FAD)

| Substance | Km |
| --- | --- |
| TcUGM (UDP-galactopyranose mutase from Trypanosoma cruzi) (Trypanosoma cruzi strain CL Brener; G61A) | 50 ± 10 µM |
| TcUGM (UDP-galactopyranose mutase from Trypanosoma cruzi) (Trypanosoma cruzi strain CL Brener; G61P) | 90 ± 20 µM |
| TcUGM (UDP-galactopyranose mutase from Trypanosoma cruzi) (Trypanosoma cruzi strain CL Brener; H62A) | 24 ± 4 µM |
